Pooled drug test results. Numbers come from NIAID ChemDB, via PubChem.

Shared fields: enzyme or target tests; organism: HIV-1; protein: Integrase; endpoint: IC50

ICn is the concentration giving n% inhibition.

SMILES	strain	mutations	read by	setting	result
CCN(CC)CCCC(C)Nc1c2ccc(Cl)cc2nc2ccc(OC)cc12			3′ processing / substrate cleavage		>100 µM
Cc1cc(O)c2c(c1)C(=O)C(c1c(C)cc3c(c1O)C(=O)C1OC1C3=O)=CC2=O			3′ processing		3.6 µM
Cc1ccccc1CN(Cc1ccccc1C)c1ccc2nc(N)[nH]c2c1			strand transfer		24 µM
CC[C@@]1(O)C(=O)OCc2c1cc1n(c2=O)Cc2cc3c(N)cccc3nc2-1			strand transfer		>100 µM
CN(C)[C@@H]1C(=O)C(C(N)=O)=C(O)[C@@]2(O)C(=O)C3=C(O)c4c(O)cccc4[C@@](C)(O)[C@H]3[C@H](O)[C@@H]12			3′ processing	Mn2+	>200 µM
CC(C)/C=C/c1cc(C(=O)Nc2cccc(OC3CCCC3)c2)cc2ccc(C(=N)N)cc12			strand transfer		2.6 µM
Cc1ccc(S(=O)(=O)n2cc(C(C(=O)O)C(=O)O)c3cc(NC(=O)c4cccc(C)c4O)ccc32)cc1			strand transfer / fluorescence		25 µM
Nc1ccc(S(=O)(=O)c2ccc(N)cc2)cc1			strand transfer		>100 µM
Cc1c2ccncc2c(C)c2c1[nH]c1ccccc12			3′ processing / substrate cleavage		30.1 µM
O=C(O)c1ccc(S(=O)(=O)c2ccc(C(=O)O)c([N+](=O)[O-])c2)cc1[N+](=O)[O-]			strand transfer		83 µM
O=C1c2c(ccc(O)c2O)CN1Cc1ccccc1F			strand transfer		34.59 µM
Nc1nc2ccc(NCc3ccccc3)cc2[nH]1			strand transfer		88 µM
COC(O)/C=C/c1ccc2c(c1)c(C(=O)/C=C1\OC(C)(C)OC1=O)cn2Cc1ccc(F)cc1		G140S	strand transfer / fluorescence		11.3 µM
Nc1nc2ccc(NS(=O)(=O)c3cc(C(F)(F)F)ccc3Cl)cc2[nH]1			strand transfer		1.8 µM
CNc1c(C#N)c(N)nc2c(N=Nc3ccc(Br)cc3)c(N)nn12			3′ processing		>250 µM
O=C(O)C(C(=O)O)c1c[nH]c2ccc([N+](=O)[O-])cc12		G140S	strand transfer / fluorescence		20.7 µM
COC(=O)C1C(=O)N(O)C(=O)c2ccccc21			ELISA		4.77 µM
C[C@H]1CC[C@@H]2N(C1)C[C@@H]1[C@](O)([C@@H](O)C[C@@]3(O)[C@@H]4CC[C@@H]5[C@]6(O)O[C@@]4(C[C@@]13O)[C@@]5(C)CC[C@H]6O)[C@]2(C)O			3′ processing		>250 µM
O=C(O)C(=O)/C=C(\O)c1cn(Cc2ccc(F)cc2)c2ccc(Br)cc12			strand transfer / fluorescence		0.2 µM
O=[N+]([O-])c1cccc([N+](=O)[O-])c1S(=O)(=O)c1ccccc1			3′ processing		>100 µM
O=C1c2ccc(O)c(O)c2C(=O)N1Cc1cccc(I)c1			strand transfer		1.1 µM
CC1(C)OC(=O)/C(=C/C(=O)c2cn(Cc3cc(F)ccc3F)c3ccc(Br)cc23)O1		Y143R	strand transfer / fluorescence		14.5 µM
O=C1C=CC(=O)c2c(O)cccc21			strand transfer		>100 µM
NC(N)=NC(N)=Nc1cccc(S(=O)(=O)c2cccc(N=C(N)N=C(N)N)c2)c1			strand transfer		>100 µM
COc1ccc(NC(=O)C/C(C)=N/N=C(N)N)c([N+](=O)[O-])c1			3′ processing	Mg2+	>200 µM
N=C(N)c1ccc2cc(C3C[C@H]3c3ccc4c(c3)C(CC3CCCCC3)=NCC4)ccc2c1			strand transfer		21 µM
CC(=O)Oc1cc(OC(C)=O)c2c(c1)C(=O)c1cc(C)cc(OC(C)=O)c1C2=O			3′ processing	Mg2+	>200 µM
COc1ccc(-c2oc3cc(OC)c(OC)c(O)c3c(=O)c2O)cc1O			3′ processing		>250 µM
O=S(=O)(c1ccc(I)cc1)c1ccc(I)cc1			3′ processing		>100 µM
O=C(O)c1cc2ccccc2c(N=Nc2ccc(S(=O)(=O)Nc3nccs3)cc2)c1O			3′ processing	Mg2+	19 µM
Cn1cc(NC(=O)c2cc(NC(=O)c3cc(NC=O)cn3C)cn2C)cc1C(=O)NCCC(=N)N			3′ processing / substrate cleavage		>100 µM
CC1=C(C(=O)Nc2ccccc2C)C(c2ccc(C3C(C(=O)Nc4ccccc4C)=C(C)NC(C)=C3C(=O)Nc3ccccc3C)cc2)C(C(=O)Nc2ccccc2C)=C(C)N1			3′ processing		>250 µM
Cc1ccc(S(=O)(=O)n2cc(C(C(=O)O)C(=O)O)c3cc(NC(=O)c4cc(F)c(F)c(F)c4)ccc32)cc1		Y143R	strand transfer / fluorescence		>25 µM
COc1cc(NS(C)(=O)=O)ccc1Nc1c2ccccc2nc2ccccc12			strand transfer		>100 µM
Oc1ccc2c(c1)OC[C@]1(O)Cc3cc(O)c(O)cc3[C@H]21			3′ processing		9.6 µM
O=C1c2ccc(O)c(O)c2C(=O)N1Cc1cccc(CO)c1			3′ processing		38 µM
COc1cc(NC(C)CCCN)c2ncccc2c1			strand transfer		3.62 µM
CC1COCCOC(=O)c2cccc(n2)C(=O)OCCOCC(C)O1			3′ processing		>250 µM
COc1cc(/C=C/c2ccc3c(C(=O)O)cc(C(=O)O)c(O)c3n2)cc(O)c1O			3′ processing		0.2 µM
NC(N)=Nc1ccc(S(=O)(=O)c2ccc(N=C(N)N)cc2)cc1			strand transfer		>100 µM
CS(=O)(=O)CS(=O)(=O)Nc1ccccc1CN1Cc2ccc(O)c(O)c2C1=O			strand transfer		32.6 µM
CC(=O)C(N=Nc1ccc(S(=O)(=O)Nc2ccccn2)cc1)C(=O)Nc1ccccc1C			3′ processing	Mg2+	>200 µM
Cc1cc([N+](=O)[O-])c(S(=O)(=O)c2ccccc2)c([N+](=O)[O-])c1			strand transfer		>100 µM
O=C(/C=C/c1ccc(O)c(O)c1)O[C@@H]1CC(O)(C(=O)O)C[C@@H](OC(=O)/C=C/c2ccc(O)c(O)c2)C1O	LAI		3′ processing		0.33 ± 0.12 µg/mL
CCN(CC)Cc1cc(Nc2ccnc3cc(Cl)ccc23)ccc1O			strand transfer		>100 µM
COc1ccc(OC)c(-c2cc(=O)c3c(OC)c(OC)c(OC)c(OC)c3o2)c1			3′ processing		>250 µM
O=C(O)/C=C/c1ccc(O)c(O)c1	LAI		3′ processing		>50 µg/mL
N#Cc1ccc(S(=O)(=O)c2ccc(C#N)cc2)cc1			strand transfer		>100 µM
O=C(O)c1cc(N=Nc2ccc(S(=O)(=O)Nc3ccccn3)cc2)ccc1O					250 µM

A second listing of 7 rows from above:

SMILES	strain	mutations	read by	setting	result
Cc1cc([N+](=O)[O-])c(S(=O)(=O)c2ccccc2)c([N+](=O)[O-])c1			strand transfer		>100 µM
O=[N+]([O-])c1cccc([N+](=O)[O-])c1S(=O)(=O)c1ccccc1			3′ processing		>100 µM
CC(=O)Oc1cc(OC(C)=O)c2c(c1)C(=O)c1cc(C)cc(OC(C)=O)c1C2=O			3′ processing	Mg2+	>200 µM
C[C@H]1CC[C@@H]2N(C1)C[C@@H]1[C@](O)([C@@H](O)C[C@@]3(O)[C@@H]4CC[C@@H]5[C@]6(O)O[C@@]4(C[C@@]13O)[C@@]5(C)CC[C@H]6O)[C@]2(C)O			3′ processing		>250 µM
O=S(=O)(c1ccc(I)cc1)c1ccc(I)cc1			3′ processing		>100 µM
Cc1ccc(S(=O)(=O)n2cc(C(C(=O)O)C(=O)O)c3cc(NC(=O)c4cccc(C)c4O)ccc32)cc1			strand transfer / fluorescence		25 µM
O=C1C=CC(=O)c2c(O)cccc21			strand transfer		>100 µM

Blank or dashed fields: not listed here. Lines come from different laboratories, so protocols vary.